A mixed list of measured activities; the numbers were collected in NIAID ChemDB.

All rows: whole-cell or culture tests; agent: HIV-1; cell line: C8166; read-out: EC50

ECn is the concentration giving n% inhibition of infection, replication or growth.

structure,strain,changes,read by,result
CCN1c2ncc(CCOc3ccc(C(=O)O)c4ccccc34)cc2C(=O)N(C)c2ccc(F)nc21,,RT-K103N Y181C,p24,<0.1 µM
O=C(c1cc2c([nH]c3ccccc32)c(-c2cccs2)n1)N1CCC(c2ccccc2F)CC1,IIIB,,syncytia,18.8 µM
CCN1c2ncc(CCOc3ccc(-c4cccnc4)cc3C)cc2C(=O)N(C)c2cccnc21,,RT-K103N Y181C,p24,<0.01 µM
Cc1ccccc1C1CCN(C(=O)c2cc3c([nH]c4ccccc43)c(-c3cccs3)n2)CC1,IIIB,,syncytia,38.7 µM
CCNC(=O)N1CCc2c(OCCc3cnc4c(c3)C(=O)N(C)c3cccnc3N4CC)ccc(C(=O)O)c2C1,,RT-K103N Y181C,p24,>1 µM
CCN1c2ncc(CCOc3ccc(-c4ccc(C(=O)O)c(Cl)c4)cc3C)cc2C(=O)N(C)c2cccnc21,IIIB,,p24,0.01–0.05 µM
COC(=O)CNP(=O)(NCC(=O)OC)OC[C@H]1O[C@@H](n2cc(C)c(=O)[nH]c2=O)C[C@@H]1N=[N+]=[N-],RF,,ELISA,0.5 µM
CCc1c(-c2ccc3c(c2)OCO3)nc(SCc2cc(-c3ccc(C)cc3)n[nH]2)[nH]c1=O,IIIB,,MTT / syncytia,4.41 µM
Cc1cn([C@H]2C=C[C@@H](CO)O2)c(=O)[nH]c1=O,,,cytopathic effect,0.32 µM
CCCCOP(=O)(OCCCC)OC[C@H]1O[C@@H](n2cc(C)c(=O)[nH]c2=O)C[C@@H]1N=[N+]=[N-],RF,,p24,>100 µM
Cc1cc(C)cc(S(=O)(=O)c2c(C(=O)NCCO)[nH]c3ccc(Cl)cc23)c1,EFV-resistant (RT K103R V179D P225H),RT-K103R V179D P225H,p24,<0.1 µM
COC(=O)C[C@H](NP(=O)(N[C@@H](CC(=O)OC)C(=O)OC)OC[C@H]1O[C@@H](n2cc(C)c(=O)[nH]c2=O)C[C@@H]1N=[N+]=[N-])C(=O)OC,RF,,ELISA,0.9 µM
O=C(c1cc2c([nH]c3ccccc32)c(-c2cccs2)n1)N1CCN(c2ccccc2)CC1,IIIB,,syncytia,102.1 µM
CCN1c2ncc(CCOc3ccc(S(=O)(=O)c4ccc(C(=O)O)cc4)cc3C)cc2C(=O)N(C)c2cccnc21,,RT-K103N Y181C,p24,>0.05 µM
O=C(c1cc2c([nH]c3ccccc32)c(-c2cccs2)n1)N1CCC(c2cccc(Cl)c2)CC1,IIIB,,p24 / antigen,27.9 µM
CCN1c2ncc(CCOc3ccc(-c4ccc[n+]([O-])c4C)cc3C)cc2C(=O)N(C)c2cccnc21,IIIB,,p24,<0.01 µM
O=C(c1cc2c([nH]c3ccccc32)c(-c2cccs2)n1)N1CCC(c2ccc(F)cc2)CC1,IIIB,,syncytia,118.8 µM
CSCO[C@]1(C)COC(C)(CC(=O)OC[C@@H]2C=C[C@H](n3cnc4c(N)ncnc43)O2)C1,,,cytopathic effect,80 µM
Nc1ccnc2c1ncn2[C@H]1CC[C@@H](CO)O1,IIIB,,,500 µM
CCOP(=O)(OCC)OC[C@H]1O[C@@H](n2cc(C)c(=O)[nH]c2=O)C[C@@H]1OC(C)=O,RF,,p24,>100 µM
OC[C@@H]1CC[C@H](n2cnc3c(NC4CCCC4)ccnc32)O1,IIIB,,,40 µM
CCCCCCCCCC[N+](C)(C)CCCNCc1c(O)cc2c(c1O)-c1cc(ccc1O)[C@H]1NC(=O)[C@@H]3NC(=O)C4NC(=O)[C@@H](Cc5ccc(c(Cl)c5)Oc5cc3cc(c5O)Oc3ccc(cc3Cl)[C@@H](O)[C@H](NC1=O)C(=O)N[C@@H]2C(=O)O)NC(=O)[C@H](N)c1ccc(O)c(c1)Oc1cc(O)cc4c1,IIIB,,syncytia,6.6 µM
CCN1c2ncc(CCOc3cccc4c3ccc[n+]4[O-])cc2C(=O)N(C)c2ccc(Cl)nc21,,RT-K103N Y181C,p24,0.011 µM
COC(=O)[C@H](C)NP(=O)(OC[C@H]1O[C@@H](n2cc(C)c(=O)[nH]c2=O)C[C@@H]1N=[N+]=[N-])OCC(Cl)(Cl)Cl,RF,,ELISA,0.09 µM
COc1ccc(N2CCN(C(=O)c3cc4c([nH]c5ccccc54)c(-c4cccs4)n3)CC2)cc1,IIIB,,syncytia,>200 µM
CCCCOP(=O)(OCCCC)OC[C@H]1O[C@@H](n2cc(C)c(=O)[nH]c2=O)C[C@@H]1OCC,RF,,p24,>100 µM
CCCCCCOP(=O)(N[C@H](C(=O)OC)C(C)C)OC[C@H]1O[C@@H](n2cc(C)c(=O)[nH]c2=O)C[C@@H]1N=[N+]=[N-],RF,,ELISA,10 µM
CCN1c2ncc(CCOc3ccc(C(=O)O)c4c3CCN(C(=O)OC)C4)cc2C(=O)N(C)c2cccnc21,,RT-K103N Y181C,p24,<0.1 µM
Cc1cc(C)cc(S(=O)(=O)c2c(C(N)=O)[nH]c3c(Cl)cc(Cl)cc23)c1,IIIB,RT-K103N Y181C,p24,>100 µM
O=C(c1cc2c([nH]c3ccccc32)c(-c2cccs2)n1)N1CCC(c2ccccn2)CC1,IIIB,,syncytia,2.8 µM
CCN1c2ncc(CCOc3ccc(/C=C(\C)C(=O)O)c4ccccc34)cc2C(=O)N(C)c2ccc(F)nc21,,RT-K103N Y181C,p24,<0.1 µM
OC[C@@H]1CC[C@H](n2cnc3c(NC4CC4)cc(Cl)nc32)O1,IIIB,,,200 µM
CCN1c2ncc(CCOc3ccc(/C=C(\C)C(=O)O)c4ccccc34)cc2C(=O)N(C)c2ccc(Cl)nc21,,RT-K103N Y181C,p24,<0.1 µM
CCN1c2ncc(CCOc3ccc(-c4cccc[n+]4[O-])cc3C)cc2C(=O)N(C)c2cccnc21,,RT-K103N Y181C,p24,<0.01 µM
CCCOP(=O)(OCCC)OC[C@H]1O[C@@H](n2cc(C)c(=O)[nH]c2=O)C[C@@H]1OC(C)=O,RF,,p24,>100 µM
CCN1c2ncc(CCOc3ccc(CCC(=O)O)c4c3CCCC4)cc2C(=O)N(C)c2ccc(Cl)nc21,WT,,p24,<0.1 µM
CCCOP(=O)(OCCC)OC[C@H]1O[C@@H](n2cc(C)c(=O)[nH]c2=O)C[C@@H]1OS(C)(=O)=O,RF,,p24,>100 µM
CCN1c2ncc(CCOc3ccc(C(=O)O)c4c3CCCC4)cc2C(=O)N(C)c2ccc(F)nc21,,RT-K103N Y181C,p24,<0.1 µM

Repeating the final 3 entries:

structure	strain	changes	read by	result
CCN1c2ncc(CCOc3ccc(CCC(=O)O)c4c3CCCC4)cc2C(=O)N(C)c2ccc(Cl)nc21	WT		p24	<0.1 µM
CCCOP(=O)(OCCC)OC[C@H]1O[C@@H](n2cc(C)c(=O)[nH]c2=O)C[C@@H]1OS(C)(=O)=O	RF		p24	>100 µM
CCN1c2ncc(CCOc3ccc(C(=O)O)c4c3CCCC4)cc2C(=O)N(C)c2ccc(F)nc21		RT-K103N Y181C	p24	<0.1 µM

Lines come from different laboratories, so protocols vary. Two numbers with a dash give a range or band. Blank or dashed fields: not listed here.